IC50 data for 2 substances are collected here from US20020055094A1 (priority 1996, published 2002).

Protein sequences, listed by entry. Tags and fused reporters are not part of them.
UniProt P06820, whole entry, looked up: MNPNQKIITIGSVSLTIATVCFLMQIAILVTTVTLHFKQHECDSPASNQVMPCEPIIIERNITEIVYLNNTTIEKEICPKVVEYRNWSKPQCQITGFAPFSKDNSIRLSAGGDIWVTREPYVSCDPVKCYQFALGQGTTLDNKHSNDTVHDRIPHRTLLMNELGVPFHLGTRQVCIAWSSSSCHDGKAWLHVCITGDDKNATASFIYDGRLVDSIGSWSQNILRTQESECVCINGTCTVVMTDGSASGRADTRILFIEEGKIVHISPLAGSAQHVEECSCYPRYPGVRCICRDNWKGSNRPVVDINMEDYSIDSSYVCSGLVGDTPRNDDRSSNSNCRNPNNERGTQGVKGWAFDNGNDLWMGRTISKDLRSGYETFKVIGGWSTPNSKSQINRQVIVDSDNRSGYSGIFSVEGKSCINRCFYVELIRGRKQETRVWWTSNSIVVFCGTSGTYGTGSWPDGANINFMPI
UniProt P27907, whole entry, looked up: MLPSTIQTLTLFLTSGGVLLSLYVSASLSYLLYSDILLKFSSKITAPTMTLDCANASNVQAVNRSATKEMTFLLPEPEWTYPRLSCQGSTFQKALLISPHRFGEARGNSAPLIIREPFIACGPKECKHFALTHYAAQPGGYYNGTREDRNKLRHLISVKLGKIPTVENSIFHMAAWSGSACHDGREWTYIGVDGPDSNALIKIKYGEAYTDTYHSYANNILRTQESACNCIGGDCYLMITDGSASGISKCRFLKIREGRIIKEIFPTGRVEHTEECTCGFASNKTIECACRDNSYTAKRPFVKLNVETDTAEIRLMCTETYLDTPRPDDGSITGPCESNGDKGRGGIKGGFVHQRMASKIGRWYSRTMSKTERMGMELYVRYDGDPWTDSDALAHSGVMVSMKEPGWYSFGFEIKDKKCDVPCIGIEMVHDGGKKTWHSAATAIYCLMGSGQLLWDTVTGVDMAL

For test [1], the target named is whole virus influenza neuraminidase, influenza A strain NWS/Tokyo (Influenza A virus, UniProt P06820). In kind it is biochemical. As to conditions: read-out: Binding Constants (M) / inhibition constants (IC50), NWS/Tokyo.
Test [2] has as its target whole virus influenza neuraminidase, influenza B strain B/Vic/02/87 (Influenza B virus, UniProt P27907). In kind it is biochemical. To be noted: read-out: Binding Constants (M) / inhibition constants (IC50), B/Vic/02/87.

As to “5-acetamido-7-{6′-[6″-(6″′-biotinylaminocaproyl) -tri-amingcaroyl]-aminohexyl}-carbamoyloxy-4-guanidino -2,3,4,5-tetradeoxy-D-glycero-D-gaacto-non-2-enopyranosonic acid [Compound No. 26]”, in test [1], the IC50 worked out at 2e-08 M.

As to DANA [reference compound], the IC50 in test [2] came to 2e-05 M.
